Compound potency records, mixed from different reports. Data source: NIAID ChemDB in PubChem.

All rows: growth or infection tests; organism: HIV-1; cell line: CEM + CEM-SS; measure: fold resistance

Fold resistance has wild type as its base.

smiles,strain,mutations,read by,result
CC1=C(C(=O)Nc2ccc(Cl)c(C(=O)OC(C)C)c2)SCCO1,IIIB(OC-R(I)),RT-L100I,cytopathic effect / XTT,>333
CCc1c(Sc2ccccn2)n(COCc2ccccc2)c(=O)[nH]c1=O,4XAZT+L100I (RT D67N K70R L100I T215Y K219Q),RT-D67N K70R L100I T215Y K219Q,cytopathic effect / XTT,1
Cc1cn([C@H]2C[C@H](N=[N+]=[N-])[C@@H](CO)O2)c(=O)[nH]c1=O,IIIB(A17(III)),RT-K103N Y181C,cytopathic effect / XTT,0.4
Cc1occc1C(=S)Nc1ccc(Cl)c(/C=N/OC(C)(C)C)c1,NL4-3 (RT M184V),RT-M184V,cytopathic effect / XTT,1.25
C/C=C/CSc1cc(NC(=S)c2ccsc2C)ccc1Cl,Costatolide-resistant (RT L100I T139I),RT-L100I T139I,XTT,>40
Cc1ccnc2c1NC(=O)c1cccnc1N2C1CC1,NL4-3,RT-V179D,cytopathic effect / XTT,1.5
Cc1c(Sc2ccccc2)n(COCCO)c(=O)[nH]c1=O,IIIB,RT-K103N Y181C,cytopathic effect / XTT,>18
CCCc1cc(=O)oc2c3c(c4c(c12)OC(C)(C)C=C4)O[C@@H](C)[C@H](C)[C@@H]3O,UC781-R (RT-Y181C),RT-Y181C,cytopathic effect / XTT,<0.3
Cc1ccnc2c1NC(=O)c1cccnc1N2C1CC1,NL4-3,RT-T139I,XTT,0.1
CCc1c(C(=O)c2cc(C)cc(C)c2)n(CC2CC=CC2)c(=O)[nH]c1=O,NL4-3,RT-K101E,cytopathic effect / XTT,>70
Cc1cn([C@H]2C[C@H](N=[N+]=[N-])[C@@H](CO)O2)c(=O)[nH]c1=O,NL4-3,RT-V106I,XTT,3
O=[N+]([O-])c1ccccc1S(=O)(=O)c1ccccc1,IIIB(THZ-R(I)),RT-V108I,cytopathic effect / XTT,>60
Cc1cn([C@H]2C[C@H](N=[N+]=[N-])[C@@H](CO)O2)c(=O)[nH]c1=O,4XAZT/L100I (RT D67N K70R L100I T215Y K219Q),RT-D67N K70R L100I T215Y K219Q,cytopathic effect / XTT,33.3
O=S1(c2ccccc2)=NC(=S)Nc2ccccc21,IIIB(OC-R(I)),RT-L100I,cytopathic effect / XTT,11
C/C=C/CSc1cc(NC(=S)c2ccsc2C)ccc1Cl,NL4-3 (RT A98G),RT-A98G,cytopathic effect / XTT,2
Cc1cn([C@H]2C[C@H](N=[N+]=[N-])[C@@H](CO)O2)c(=O)[nH]c1=O,NL4-3,RT-K103N,cytopathic effect / XTT,4

A second listing of 2 rows from above:

smiles	strain	mutations	read by	result
Cc1occc1C(=S)Nc1ccc(Cl)c(/C=N/OC(C)(C)C)c1	NL4-3 (RT M184V)	RT-M184V	cytopathic effect / XTT	1.25
CC1=C(C(=O)Nc2ccc(Cl)c(C(=O)OC(C)C)c2)SCCO1	IIIB(OC-R(I))	RT-L100I	cytopathic effect / XTT	>333

Neighbouring rows are from separate reports.